Measured values taken from patent US12138299B2, “Aldehyde dehydrogenase producing bacteria and methods of using same” (Children's Hospital Medical Center, priority 2021, dated 2024).
This is a selection: effects in other tests are not listed, and their absence says nothing.

Tested on: C. rodentium
Assay: C. rodentium in vitro culture, bacterial density (OD600)
Type: cell-based, Citrobacter rodentium
Conditions: 10-1000 μM SNP (NO-donor)

With sodium nitroprusside the “C. rodentium survival in vitro” value was “impaired”.
